In PMC12474298:

Tests used:
[1] = target: human importin α3 lacking the importin-β binding domain (hIMPα3ΔIBB); test: FP assay; settings: parent: 192.86 nM
[2] = target: human importin α1 lacking the importin-β binding domain (hIMPα1ΔIBB); test: FP assay; settings: parent: 225.68 nM

“HaHV1 UL36h NLS peptide (residues 1491-1500), FITC/Ahx-labelled R1495A” was tested, and the Kd [1] was 4.2 µM and the Kd [2] was 5.86 µM.
